Measured values from several laboratories, pooled; numbers as filed in NIAID ChemDB.

Shared fields: growth or infection tests; species: Cryptococcus neoformans

MIC50, MIC90 and the like: level of inhibition, or share of isolates inhibited.

structure	strain or isolate	read by	read-out	tested at	result
CC(C)N=C(N)c1ccc2nc(-c3ccc4c(c3)Cc3cc(-c5nc6ccc(C(N)=NC(C)C)cc6[nH]5)ccc3-4)[nH]c2c1	9 strains	-	Geometric mean MFC	-	1.03 µg/mL
C[C@@H](c1ncncc1F)[C@](O)(Cn1cncn1)c1ccc(F)cc1F	CBS 889	broth dilution	MIC	-	0.016 µg/mL
CN[C@H]1CC[C@@H](c2ccc(Cl)c(Cl)c2)c2ccccc21	UA 1993	broth dilution	MIC90	-	5 µg/mL
COc1cccc(N(C)C(=S)Oc2ccc3c(c2)CCCC3)n1	33 strains	-	MIC90	-	1.25 µg/mL
C[C@@H](n1cnc2cc(Cl)ccc2c1=O)[C@](O)(Cn1cncn1)c1ccc(F)cc1F	Isolate 109.97	-	MFC	-	1.25 µg/mL
Oc1ccccc1N=Cc1ccccc1	28JF	-	MIC99	-	8 µg/mL
C[C@@H](c1nc(-c2ccc(C#N)cc2)cs1)[C@](O)(Cn1cnnc1)c1ccc(F)cc1F	A26037	-	MFC99	-	0.06 µg/mL
CNC(CCC(C)C1CC[C@@]2(C)C3=C(CCC12C)C1(C)CC[C@H](OC(C)=O)C(C)(C)C1CC3)C(C)C	A.34144	-	MIC90	-	100 µg/mL
COC(=O)[C@H]1[C@@H]2C[C@@H](O[C@@H]3O[C@H](C)[C@@H](O)[C@H](N)[C@@H]3O)/C=C/C=C/C=C/C=C/C=C/C=C/C=C/[C@H](C)[C@@H](O)[C@H](C)[C@H](C)OC(=O)C[C@H](O)C[C@H](O)[C@@H](O)CC[C@H](O)C[C@H](O)C[C@](O)(C[C@@H]1O)O2	42 isolates (HIV+)	-	Mean MIC	-	0.026 µg/mL
C[C@H]1[C@H](O)[C@@H](C)/C=C/C=C/C=C/C=C/C=C/C=C/C=C/[C@H](O[C@@H]2O[C@H](C)[C@@H](O)[C@H](N)[C@@H]2O)C[C@@H]2O[C@](O)(C[C@@H](O)C[C@@H](O)CC[C@H](O)[C@@H](O)C[C@@H](O)CC(=O)O[C@H]1C)C[C@H](O)[C@H]2C(=O)O	ATCC90112	-	MIC100	-	0.8 µg/mL
Cc1cc(-c2cc(C)n(C)n2)no1	-	-	MFC	-	>200 µM
COc1ccc(/C=C2\CSc3ccccc3C2=O)cc1	93/V	-	MIC	-	6 µg/mL
C[C@H]1[C@H](O)[C@@H](C)/C=C/C=C/C=C/C=C/C=C/C=C/C=C/[C@H](O[C@@H]2O[C@H](C)[C@@H](O)[C@H](N)[C@@H]2O)C[C@@H]2O[C@](O)(C[C@@H](O)C[C@@H](O)CC[C@H](O)[C@@H](O)C[C@@H](O)CC(=O)O[C@H]1C)C[C@H](O)[C@H]2C(=O)O	-	agar diffusion / agar	zone	4 µg/mL	24 mm
C[C@@H](n1ncn(-c2ccc(OCC(F)(F)C(F)F)cc2)c1=O)[C@](O)(Cn1cncn1)c1ccc(F)cc1F	DUMC 133.95	-	MFC	-	1 µg/mL
CSCC[C@H]1NC(=O)[C@H]2CCCN2C1=O	-	agar diffusion / agar	zone	32 µg/mL	23 mm
O=C1/C(=C/c2ccc3c(c2)OCO3)CSc2ccc(Cl)cc21	25	-	MIC	-	12.5 µg/mL
COc1ccc(-c2cc3cc(Cl)cnc3[nH]2)c(C)c1	ATCC90112	-	MIC100	-	15.6 µg/mL
CC(C)(C)OC(=O)N1CCC(n2cc(C#N)nn2)CC1	NCIM576	agar	inhibition	200 µg/mL	0%
Oc1ccccc1C=Nc1ccccc1O	27JF	-	MIC99	-	11.3 µg/mL
NC(=S)N/N=C(\N)c1ccccn1	ATCC 24067A	-	MIC100	-	52.53 µM
C[C@H]([C@](O)(Cn1cncn1)c1ccc(F)cc1F)S(C)(=O)=O	R718 (AZOLE-R)	-	EC50	-	2 µM
O=c1cc(CO)occ1O	CN24	-	MIC99	-	>12800 µM
C[C@@H](N1CCN(Cc2cn(Cc3ccc(Cl)cc3)c3c(Cl)cccc23)CC1)[C@](O)(Cn1cncn1)c1ccc(F)cc1F	ATCC 36556	resazurin	MIC80	-	>128 µg/mL
Cc1cc(-c2nn(C)c(C)c2N=O)no1	-	-	MFC	-	3.1 µM
CCN1CCC(O)(/C=C/c2ccc(Cl)c(Cl)c2)C(C(=O)/C=C/c2ccc(Cl)c(Cl)c2)C1	2 strains	-	Mean MIC	-	3.12 µM
COC1CC2CCC(C)C(O)(O2)C(=O)C(=O)N2CCCCC2C(=O)OC(C(C)CC2CCC(O)C(OC)C2)CC(=O)C(C)/C=C(\C)C(O)[C@@](OC)(N(O)C(=O)OCC(C)C)C(=O)C(C)CC(C)/C=C/C=C/C=C/1C	TOR1-1	-	MFC	-	>100 µg/mL
C[C@H]1[C@H](O)[C@@H](C)/C=C/C=C/C=C/C=C/C=C/C=C/C=C/[C@H](O[C@@H]2O[C@H](C)[C@@H](O)[C@H](N)[C@@H]2O)C[C@@H]2O[C@](O)(C[C@@H](O)C[C@@H](O)CC[C@H](O)[C@@H](O)C[C@@H](O)CC(=O)O[C@H]1C)C[C@H](O)[C@H]2C(=O)O	9 strains	-	Geometric mean MIC	-	0.74 µg/mL
Cc1nc(NCCCCNc2ccnc3cc(Cl)ccc23)nc(-c2ccccc2[N+](=O)[O-])c1C(=O)OC(C)C	VM-MCMMPI	-	MIC99	-	8 µg/mL
COc1cccc(-c2cc3cccnc3[nH]2)c1	ATCC90112	-	MIC100	-	15.6 µg/mL
Cn1nc(Cc2ccc(Cl)cc2)c2ccccc2c1=O	Clinical isolate (IM 972724)	broth dilution	MIC80	-	3.9 µg/mL
CCCn1nc(C)c(N=O)c1-c1cc(C)on1	-	-	MFC	-	0.8 µM
O=C1/C(=C/c2ccccc2[N+](=O)[O-])CCc2ccccc21	25	-	MIC	-	100 µg/mL
Brc1cnc2[nH]c(CN3CCOCC3)cc2c1	ATCC90112	-	MIC100	-	8 µg/mL
CCC(C)n1ncn(-c2ccc(N3CCN(c4ccc(OC[C@H]5CO[C@](Cn6cncn6)(c6ccc(Cl)cc6Cl)O5)cc4)CC3)cc2)c1=O	12 strains	-	Geometric mean MIC	-	0.114 µg/mL
CC(C)C(CCC(C)C1CC[C@@]2(C)C3=C(CCC12C)C1(C)CC[C@H](O)C(C)(C)C1CC3)NC1CCCCC1	A.34144	-	MIC90	-	12.5 µg/mL
CCC(C)n1ncn(-c2ccc(N3CCN(c4ccc(OC[C@H]5CO[C@](Cn6cncn6)(c6ccc(Cl)cc6Cl)O5)cc4)CC3)cc2)c1=O	-	broth dilution	MIC50	-	0.06 µg/mL
OC(CN1CCN(c2ccc(OCc3ccncc3)cc2)CC1)(Cn1cncn1)c1ccc(F)cc1F	9406204	-	MIC80	-	0.5 µg/mL
Clc1ccc(C(Cn2ccnc2)OCc2csc3c(Cl)cccc23)c(Cl)c1	12 strains	-	Mean MIC	-	0.5 µg/mL
Nc1ncccc1-c1cc(Cc2ccc(COc3ccccn3)cc2)no1	-	broth dilution	MIC50	-	0.5 µg/mL
CC(C)C(N)CCC(C)C1CC[C@@]2(C)C3=C(CCC12C)C1(C)CC[C@H](O)C(C)(C)C1CC3	A.34144	-	MIC90	-	0.2 µg/mL
COc1cc(/C=C2\COc3ccccc3C2=O)ccc1O	25	-	MIC	-	12.5 µg/mL
Cc1cc(-c2n[nH]c(C)c2N=O)no1	-	-	MFC	-	60 µM
CCOC(=O)c1c(C)nc(NCCCCNc2ccnc3cc(Cl)ccc23)nc1-c1ccccc1	C-3-1	-	MIC99	-	2 µg/mL
CCN1CCC(O)(/C=C/c2ccc(C)cc2)C(C(=O)/C=C/c2ccc(C)cc2)C1	2 strains	-	Mean MIC	-	50 µM
Oc1ccccc1N=Cc1ccc2c(c1)OCO2	ATCC 62066	-	MIC99	-	2.8 µg/mL
CC(C)C(CCC(C)C1CCC2C3CC=C4C[C@@H](O)CCC4(C)C3CCC12C)NS(=O)(=O)O	IFM.40092	-	MIC90	-	0.2 µg/mL
C=C1CO[C@H]2[C@@H](C)OC(OC[C@@]34C[C@H]5[C@H](C)CC[C@@H]5[C@@]5(C=O)C[C@@H]3C=C(C(C)C)[C@@]45C(=O)O)C[C@@H]12	15 strains (serotype B)	-	Mean MIC	-	0.833 µg/mL
OC(Cn1cncn1)(Cn1cncn1)c1ccc(F)cc1F	Var. gattii (isolate 54713)	colony count	inhibition	1 µg/mL	91%
O=C1/C(=C/c2ccc3ccccc3c2)CSc2ccccc21	25	-	MIC	-	12.5 µg/mL
NCCCC[C@H](NC(=O)[C@@H](N)CCCCN)C(=O)N[C@@H](CCC(N)=O)C(=O)N[C@@H](CCCN=C(N)N)C(=O)O	ATCC 32264	-	inhibition	200 µM	100%
O=c1[nH]c(-c2cn(C3CCNCC3)nn2)no1	NCIM576	agar	inhibition	200 µg/mL	0%
COC1CC2CCC(C)C(O)(O2)C(=O)C(=O)N2CCCCC2C(=O)OC(C(C)CC2CCC(O)C(OC)C2)CC(=O)C(C)/C=C(\C)[C@@](O)(c2ccc(C)s2)C(OC)C(=O)C(C)CC(C)/C=C/C=C/C=C/1C	TOR1-1	-	MFC	-	>100 µg/mL
Brc1cnc2[nH]c(CN3CCCCC3)cc2c1	ATCC90112	-	MIC100	-	15.6 µg/mL
CC1(C)O[C@H]2[C@H](O)[C@@H](N=[N+]=[N-])C=C(c3ccc(C=O)cc3)[C@H]2O1	ATCC 32264	broth dilution / turbidity	inhibition	7.8 µg/mL	0%
CCCCc1oc2ccccc2c1C(=O)c1cc(I)c(OCCN(CC)CC)c(I)c1	271	-	inhibition	7 µM	100%
COc1ccc(/C=C2\CS(=O)(=O)c3ccccc3C2=O)cc1	25	-	MIC	-	25 µg/mL
C[C@H]1[C@H](O)[C@@H](C)/C=C/C=C/C=C/C=C/C=C/C=C/C=C/[C@H](O[C@@H]2O[C@H](C)[C@@H](O)[C@H](N)[C@@H]2O)C[C@@H]2O[C@](O)(C[C@@H](O)C[C@@H](O)CC[C@H](O)[C@@H](O)C[C@@H](O)CC(=O)O[C@H]1C)C[C@H](O)[C@H]2C(=O)O	37 strains	-	MIC90	-	0.5 µg/mL
CC(C)C(N)CCC(C)C1CCC2C3CC=C4C[C@@H](O)CCC4(C)C3CCC12C	IFM.40092	-	MIC90	-	≤0.05 µg/mL
O=C1/C(=C/c2ccc(Cl)cc2)CCc2ccccc21	93/V	-	MIC	-	6 µg/mL

The first 9 rows once more:

structure,strain or isolate,read by,read-out,tested at,result
CC(C)N=C(N)c1ccc2nc(-c3ccc4c(c3)Cc3cc(-c5nc6ccc(C(N)=NC(C)C)cc6[nH]5)ccc3-4)[nH]c2c1,9 strains,-,Geometric mean MFC,-,1.03 µg/mL
C[C@@H](c1ncncc1F)[C@](O)(Cn1cncn1)c1ccc(F)cc1F,CBS 889,broth dilution,MIC,-,0.016 µg/mL
CN[C@H]1CC[C@@H](c2ccc(Cl)c(Cl)c2)c2ccccc21,UA 1993,broth dilution,MIC90,-,5 µg/mL
COc1cccc(N(C)C(=S)Oc2ccc3c(c2)CCCC3)n1,33 strains,-,MIC90,-,1.25 µg/mL
C[C@@H](n1cnc2cc(Cl)ccc2c1=O)[C@](O)(Cn1cncn1)c1ccc(F)cc1F,Isolate 109.97,-,MFC,-,1.25 µg/mL
Oc1ccccc1N=Cc1ccccc1,28JF,-,MIC99,-,8 µg/mL
C[C@@H](c1nc(-c2ccc(C#N)cc2)cs1)[C@](O)(Cn1cnnc1)c1ccc(F)cc1F,A26037,-,MFC99,-,0.06 µg/mL
CNC(CCC(C)C1CC[C@@]2(C)C3=C(CCC12C)C1(C)CC[C@H](OC(C)=O)C(C)(C)C1CC3)C(C)C,A.34144,-,MIC90,-,100 µg/mL
COC(=O)[C@H]1[C@@H]2C[C@@H](O[C@@H]3O[C@H](C)[C@@H](O)[C@H](N)[C@@H]3O)/C=C/C=C/C=C/C=C/C=C/C=C/C=C/[C@H](C)[C@@H](O)[C@H](C)[C@H](C)OC(=O)C[C@H](O)C[C@H](O)[C@@H](O)CC[C@H](O)C[C@H](O)C[C@](O)(C[C@@H]1O)O2,42 isolates (HIV+),-,Mean MIC,-,0.026 µg/mL

Zone: diameter of growth inhibition. An empty or dashed field is not shown. ECn: concentration that inhibits the pathogen or its effect by n%. Percent inhibition refers to the dose given; in toxicity tests it is the harm to the cells. Lines come from different laboratories, so protocols vary.